Here are results for 1 substance from paper PMC11670951.

For this experiment, the target named is rhesus macaque FcγRI. The experiment is described as follows: flow cytometry on cells. Particulars: value at the highest antibody concentration, about 5e4 ng/mL (read from the x axis); HEK293T/17 cells transiently transfected with rhesus macaque FcγRI; parent: est. 42000; read off a plot.

For the substance “PGT121 (recombinant human IgG1 antibody) L234A; L235A; P329G”, the response (binding score) amounted to 2500.
